In US20240132578A1:

Tests used:
Assay in all cases: cell-based or functional assay
[1] = biological target: HIV-1 clade G Env pseudoviruses of the cross-clade 162-pseudovirus panel (n=15)
[2] = biological target: HIV-1 clade B Env pseudoviruses of the cross-clade 162-pseudovirus panel (n=31)
[3] = biological target: HIV-1 Env of the clade AE pseudoviruses of the cross-clade 162-pseudovirus panel (n = 10)
[4] = biological target: HIV-1 clade AG Env pseudoviruses of the cross-clade 162-pseudovirus panel (n=10)
[5] = biological target: 162-pseudovirus panel representing all major circulating HIV-1 subtypes
[6] = biological target: HIV-1 clade D Env pseudoviruses of the cross-clade 162-pseudovirus panel (n=25)
[7] = biological target: HIV-1 clade F Env pseudoviruses of the cross-clade 162-pseudovirus panel (n=15)
[8] = biological target: HIV-1 clade AE Env pseudoviruses of the cross-clade 162-pseudovirus panel (n=10)
[9] = biological target: HIV-1 clade A Env pseudoviruses of the cross-clade 162-pseudovirus panel (n=26)
[10] = biological target: HIV-1 clade C Env pseudoviruses of the cross-clade 162-pseudovirus panel (n=27)
[11] = biological target: HIV-1 Env of the clade A pseudoviruses of the cross-clade 162-pseudovirus panel (n = 26)
[12] = biological target: All HIV-1 Env pseudoviruses of the cross-clade 162-pseudovirus panel (n=162)

B1: 5114_A19 (PGT-128) (antibody, V domains shown)
VH: QPQLQESGPTLVEASETLSLTCAVSGDSTAACNSFWGWVRQPPGKGLEWVGSLSHCASYWNRGWTYHNPSLKSRLTLALDTPKNLVFLKLNSVTAADTATYYCARFGGEVLRYTDWPKPAWVDLWGRGTLVTVSS
VL: QSALTQPPSASGSPGQSITISCTGTSNNFVSWYQQHAGKAPKLVIYDVNKRPSGVPDRFSGSKSGNTASLTVSGLQTDDEAVYYCGSLVGNWDVIFGGGTKLTVL
Binder B1 has a Median IC50 (µg/ml) against viruses neutralized with an IC50 <50 µg/ml (section D) [1] of 0.12 µg/mL, a Median IC50 (µg/ml) against viruses neutralized with an IC50 <50 µg/ml (section D) [2] of 0.07 µg/mL and a Median IC50 (µg/ml) against viruses neutralized with an IC50 <50 µg/ml [3] of 0.05 µg/mL. For the same binder, the Median IC50 (µg/ml) against viruses neutralized with an IC50 <50 µg/ml (section D) [4] was 0.13 µg/mL, the Median IC50 (µg/ml) against viruses neutralized with an IC50 <50 µg/ml [5] was 0.02 µg/mL and the Percent viruses neutralized, IC50 < 0.1 µg/ml [5] was 50%. The Percent viruses neutralized, IC50 < 1 µg/ml [5] was 60%, the Median IC50 (µg/ml) against viruses neutralized with an IC50 <50 µg/ml (section D) [6] was 0.12 µg/mL and the Median IC50 (µg/ml) against viruses neutralized with an IC50 <50 µg/ml (section D) [7] was 1.17 µg/mL. For the same binder, the Median IC50 (µg/ml) against viruses neutralized with an IC50 <50 µg/ml (section D) [8] was 1.47 µg/mL, the Median IC50 (µg/ml) against viruses neutralized with an IC50 <50 µg/ml (section D) [9] was 0.04 µg/mL and the Median IC50 (µg/ml) against viruses neutralized with an IC50 <50 µg/ml (section D) [10] was 0.17 µg/mL.

B2: 5329_C19 (PGT-136) (antibody, V domains shown)
VH: QLQLQESGPGLVKPSETLSLTCTVSGGSMRGTDWGENDFHYGWIRQSSAKGLEWIGSIHWRGRTTHYKTSFRSRATLSIDTSNNRFSLTFSFVTAADTAVYYCARHKYHDIFRVVPVAGWFDPWGQGLLVTVSS
VL: EIVMTQSPPTLSVSPGETATLSCRASQNVKNNLAWYQLKPGQAPRLLIFDASSRAGGIPDRFSGSGYGTDFTLTVNSVQSEDFGDYFCQQYEEWPRTFGQGTKVDIK
Binder B2 has a Median IC50 (µg/ml) against viruses neutralized with an IC50 <50 µg/ml [11] of 2.34 µg/mL, a Median IC50 (µg/ml) against viruses neutralized with an IC50 <50 µg/ml (section D) [1] of 7.54 µg/mL and a Median IC50 (µg/ml) against viruses neutralized with an IC50 <50 µg/ml (section D) [2] of 2.09 µg/mL. It also gave a Percent viruses neutralized, IC50 < 0.1 µg/ml [5] of 3%, a Percent viruses neutralized, IC50 < 1 µg/ml [5] of 6% and a Median IC50 (µg/ml) against viruses neutralized with an IC50 <50 µg/ml (section D) [6] of 2.1 µg/mL. The Median IC50 (µg/ml) against viruses neutralized with an IC50 <50 µg/ml (section D) [10] was 0.28 µg/mL.

B3: 5345_I01 (PGT-137) (antibody, V domains shown)
VH: EVHLEESGPGLVRPSETLSLTCTASGGSIRGGEWGDSDYHWGWVRHSPEKGLEWIGSIHWRGTTHYNAPFRGRGRLSIDLSRNQFSLRLTSVTAEDTAVYYCVKHKYHDIVMVVPIAGWFDPWGQGLQVTVSS
VL: EIMMTQSPAILSVSPGDRATLSCRASQSVKNNLAWYQKRPGQAPRLLIFDTSSRASGIPARFSGGGSGTEFTLTVNSMQSEDFATYYCQQYEEWPRTFGQGTKVEIK
B3 was tested, and the Median IC50 (µg/ml) against all viruses [1] was greater than 50 µg/mL, the Median IC50 (µg/ml) against all viruses [4] was greater than 50 µg/mL and the Percent viruses neutralized, IC50 < 0.1 µg/ml [5] was 4%. The Percent viruses neutralized, IC50 < 1 µg/ml [5] was 8%, the Median IC50 (µg/ml) against all viruses [6] was greater than 50 µg/mL and the Median IC50 (µg/ml) against all viruses [7] was greater than 50 µg/mL. The Median IC50 (µg/ml) against all viruses [8] was greater than 50 µg/mL, the Median IC50 (µg/ml) against all viruses [10] was greater than 50 µg/mL and the Median IC50 (µg/ml) against all viruses [12] was greater than 50 µg/mL.
